A mixed list of measured activities; the numbers were collected in NIAID ChemDB.

Shared fields: tests in culture

Inhibition is in % at the dose shown (toxicity tests: loss of growth or viability).

| compound | agent | strain | cells | method | measure | dose | result |
|---|---|---|---|---|---|---|---|
| COc1cc(/C=C/C=C\c2ccccc2OC)oc(=O)c1 | Cryptosporidium parvum |  |  |  | EC50 |  | >50 µM |
| Oc1ccccc1N=Cc1ccc(F)cc1 | Cryptococcus gattii | LMM 818 |  |  | MIC99 |  | 5.7 µg/mL |
| C[C@@H](n1cnc2cc(Cl)ccc2c1=O)[C@](O)(Cn1cncn1)c1ccc(F)cc1F | Cryptococcus neoformans | Isolate 158.03 |  |  | MFC |  | 20 µg/mL |
| Oc1ccc(O)c(C=Nc2ccccc2O)c1 | Cryptococcus neoformans | ATCC 62066 |  |  | MIC99 |  | 2.8 µg/mL |
| C=C/C=C/c1cc(OC)cc(=O)o1 | Cryptosporidium parvum |  |  |  | inhibition | 10 µM | 13% |
| C[C@@H](c1nc(-c2ccc(C#N)cc2)cs1)[C@](O)(Cn1cncn1)c1cc(F)ccc1F | Cryptococcus gattii | VG IIa |  | broth dilution | MIC90 |  | 0.063 µg/mL |
| CC(=O)Oc1ccccc1C(=O)Nc1ncc([N+](=O)[O-])s1 | Cryptosporidium parvum |  | A549 |  | inhibition | 2 µg/mL | 41% |
| Oc1ccccc1N=Cc1ccc2c(c1)OCO2 | Cryptococcus gattii | 196L/03 |  |  | MIC99 |  | 8 µg/mL |
| C[C@H]1[C@H](O)[C@@H](C)/C=C/C=C/C=C/C=C/C=C/C=C/C=C/[C@H](O[C@@H]2O[C@H](C)[C@@H](O)[C@H](N)[C@@H]2O)C[C@@H]2O[C@](O)(C[C@@H](O)C[C@@H](O)CC[C@H](O)[C@@H](O)C[C@@H](O)CC(=O)O[C@H]1C)C[C@H](O)[C@H]2C(=O)O | Cryptococcus neoformans | A25838 |  |  | MFC99 |  | 0.25 µg/mL |
| CC(=O)OC[C@H]1O[C@@H](O[C@@H]2[C@@H](N=[N+]=[N-])[C@H](O)[C@H](O)[C@H]3OC(C)(C)O[C@H]32)[C@H](OC(C)=O)[C@@H](OC(C)=O)[C@H]1OC(C)=O | Cryptococcus neoformans | ATCC 32264 |  | broth dilution / turbidity | inhibition | 31.25 µg/mL | 3.23% |
| O=C1COc2cc(O)ccc21 | Cryptosporidium parvum |  |  |  | inhibition | 50 µM | 4% |
| O=[N+]([O-])c1ccc(C=Nc2ccccc2O)cc1 | Cryptococcus gattii | ATCC 24065 |  |  | MIC99 |  | 8 µg/mL |
| COc1ccc(/C=C2\Oc3cc(O)ccc3C2=O)cc1OC | Cryptosporidium parvum |  |  |  | EC50 |  | <10 µM |
| Oc1ccccc1C=Nc1ccccc1O | Cryptococcus neoformans | LMM 820 |  |  | MIC99 |  | 4 µg/mL |
| CNC(NC)c1ccc2cc(-n3cc(CCCO)nn3)c(=O)oc2c1 | Cryptococcus gattii |  |  | broth dilution | MIC |  | >750 µg/mL |
| Cn1nc(Cc2ccc(Cl)cc2)c2ccccc2c1=O | Cryptococcus neoformans | Clinical isolate (IM 042074) |  | broth dilution | MIC50 |  | 3.9 µg/mL |
| NCCCC[C@H](NC(=O)[C@H](Cc1c[nH]c2ccccc12)NC(=O)[C@H](CCCCN)NC(=O)[C@@H](N)CCCCN)C(=O)O | Cryptococcus neoformans | ATCC 32264 |  |  | inhibition | 12.5 µM | 0% |
| COc1cc(/C=C/C=C\c2ccccc2)oc(=O)c1C | Cryptosporidium parvum |  |  |  | inhibition | 50 µM | 11% |
| Cc1nc(NCCCCNc2ccnc3cc(Cl)ccc23)nc(-c2ccccc2[N+](=O)[O-])c1C(=O)OC(C)C | Cryptococcus gattii | 135L/03 |  |  | MIC99 |  | 8 µg/mL |
| O=C1/C(=C/c2ccccc2)Oc2cc(O)ccc21 | Cryptosporidium parvum |  |  |  | inhibition | 10 µM | 1% |
| CN[C@H]1CC[C@@H](c2ccc(Cl)c(Cl)c2)c2ccccc21 | Cryptococcus neoformans | 123.96 |  | broth dilution | MIC90 |  | 4 µg/mL |
| NC[C@@H]1O[C@H](O[C@H]2[C@@H](O)[C@H](O[C@@H]3[C@@H](O)[C@H](N)C[C@H](N)[C@H]3O[C@H]3O[C@H](CO)[C@@H](O)[C@H](O)[C@H]3N)O[C@@H]2CO)[C@H](N)[C@@H](O)[C@@H]1O | Cryptosporidium parvum | IOWA | MDCK | luminescence | inhibition | 10 µg/mL | 2.8% |
| CCC(C)n1ncn(-c2ccc(N3CCN(c4ccc(OC[C@H]5CO[C@](Cn6cncn6)(c6ccc(Cl)cc6Cl)O5)cc4)CC3)cc2)c1=O | Cryptococcus spp. | D |  | broth dilution | MIC |  | 2 µg/mL |
| C[C@@H](c1ncncc1F)[C@](O)(Cn1cncn1)c1ccc(F)cc1F | Cryptococcus gattii | ICB 107 |  | broth dilution | MIC |  | 1 µg/mL |
| COc1cc(/C=C2\Oc3cc(O)cc(O[C@@H]4O[C@H](CO)[C@@H](O)[C@H](O)[C@H]4O)c3C2=O)cc(OC)c1O | Cryptosporidium parvum |  |  |  | EC50 |  | 10–25 µM |
| COc1c2c(c(O)c3ccccc13)C(=O)c1cnn(C)c1C2=O | Cryptosporidium parvum |  |  |  | EC50 |  | <10 µM |
| O=C1/C(=C/c2ccc(O)cc2)Oc2cc(O)ccc21 | Cryptosporidium parvum |  |  |  | inhibition | 10 µM | 3% |
| Cc1ccc2c(c1)C(=O)c1c(cnn1C)C2=O | Cryptosporidium parvum |  |  |  | inhibition | 25 µM | 34% |
| CC[C@@H](C(=O)[C@@H](C)[C@@H](O)[C@H](C)CCc1ccc(C)c(O)c1C(=O)O)[C@H]1O[C@](CC)([C@H]2CC[C@](O)(CC)[C@H](C)O2)C[C@@H]1C | Cryptosporidium parvum |  | A549 |  | inhibition | 0.125 µg/mL | 12% |
| NC[C@@H]1O[C@H](O[C@H]2[C@@H](O)[C@H](O[C@@H]3[C@@H](O)[C@H](N)C[C@H](N)[C@H]3O[C@H]3O[C@H](CO)[C@@H](O)[C@H](O)[C@H]3N)O[C@@H]2CO)[C@H](N)[C@@H](O)[C@@H]1O | Cryptosporidium parvum |  | MDBK | cell count | EC50 |  | <1000 µg/mL |
| COc1cc(C)cc2c1C(=O)c1cnn(C)c1C2=O | Cryptosporidium parvum |  |  |  | inhibition | 100 µM | 71% |

Again, the opening 3 rows:

compound,agent,strain,cells,method,measure,dose,result
COc1cc(/C=C/C=C\c2ccccc2OC)oc(=O)c1,Cryptosporidium parvum,,,,EC50,,>50 µM
Oc1ccccc1N=Cc1ccc(F)cc1,Cryptococcus gattii,LMM 818,,,MIC99,,5.7 µg/mL
C[C@@H](n1cnc2cc(Cl)ccc2c1=O)[C@](O)(Cn1cncn1)c1ccc(F)cc1F,Cryptococcus neoformans,Isolate 158.03,,,MFC,,20 µg/mL

ECn: concentration that inhibits the pathogen or its effect by n%. Two numbers with a dash give a range or band. Blank or dashed fields: not listed here. MIC50, MIC90 and the like: level of inhibition, or share of isolates inhibited. Conditions beyond the fields shown may differ between rows.